Measured values from several laboratories, pooled; numbers as filed in NIAID ChemDB.

Shared fields: growth or infection tests; organism: HIV-1; cell line: C8166; read-out: EC50

Rows are shuffled and stem from different studies. ECn is the concentration giving n% inhibition of infection, replication or growth. Blank or dashed fields: not listed here. a–b is a range or a potency band.

compound	strain	changes	method	value
COC(=O)C[C@@H](OC1=C(C)C(=O)C(C)(C)C1=O)c1ccccc1			MTT	25.91 µM
CCOP(=O)(NCC(=O)OC)OC[C@H]1O[C@@H](n2cc(C)c(=O)[nH]c2=O)C[C@@H]1N=[N+]=[N-]	RF		ELISA	10 µM
CN1CCN(c2ccnc3nc(CN(C)C4CCCc5cccnc54)[nH]c23)CC1	IIIB		syncytia	0.025 µM
CCc1c(CC2CCCCC2)nc(SCC(C)C)[nH]c1=O				0.101 µM
C=C(C)[C@]1(O)C[C@@H](C)[C@@]2(O)[C@H]([C@H]1OC(=O)/C=C/C=C/CCCCC)[C@@H]1O[C@]1(CO)[C@@H](O)[C@]1(O)C(=O)C(C)=C[C@H]12			syncytia	0.02596 µM
CN1CCN(c2ccnc3nc(CN(C)Cc4ncccc4CCC#N)[nH]c23)CC1	IIIB		syncytia	3.536 µM
COc1cc([C@H]2c3cc(O)c(OC)cc3C[C@@H](COC(C)=O)[C@@H]2CO)ccc1O	IIIB		MTT	100.7 µg/mL
CCN1c2ncc(CCOc3cccc4c3CNC(=O)N4C)cc2C(=O)N(C)c2cccnc21	IIIB		p24	<0.01 µM
CC(C)c1c(Cc2cccc3ccccc23)nc(Sc2cccs2)[nH]c1=O	IIIB		syncytia	24.1 µM
CCN1c2ncc(CCOc3ccc(CCC(=O)O)c4ccccc34)cc2C(=O)N(C)c2ccc(F)nc21		RT-K103N Y181C	p24	<0.1 µM
O=C(c1cc2c([nH]c3ccccc32)c(-c2cccs2)n1)N1CCC(c2ccc(Cl)cc2)CC1	IIIB		syncytia	>200 µM
Cc1ccc(S(=O)(=O)n2cc(/C=N/NC(=O)c3ccccc3)c3ccccc32)cc1	IIIB		syncytia / visual reading	11.02 µg/mL
O=C(c1cc2c([nH]c3ccccc32)c(-c2cccs2)n1)N1CCC(c2ccccc2F)CC1	IIIB		p24 / antigen	35.2 µM
CCN1c2ncc(CCOc3ccc(-c4ccc(CC(=O)O)cc4)cc3C)cc2C(=O)N(C)c2cccnc21	IIIB		p24	<0.01 µM
CC1=CC[C@@H]([C@@H](C)[C@H]2CC[C@@]3(C)C4=C(C(=O)C[C@]23C)[C@H]2O[C@]23C=CC(=O)OC(C)(C)[C@@H]3CC4)OC1=O			cytopathic effect	1.09 µg/mL
O=C(N/N=C/c1cn(S(=O)(=O)c2cccc([N+](=O)[O-])c2)c2ccccc12)c1ccccc1	IIIB		syncytia / visual reading	4.06 µg/mL
CCOC(=O)COP(=O)([O-])OCC[NH2+]C			antigen	100 µM
Cc1c(CC2CCCCC2)nc(SCc2ccccc2)[nH]c1=O				1.254 µM
NC(=O)c1cc2c([nH]c3ccccc32)c(-c2ccc(CO)o2)n1	IIIB		syncytia	0.38 µM
CCc1c(Cc2cccc3ccccc23)nc(SCC(=O)c2ccccc2)[nH]c1=O	IIIB		syncytia	0.579 µM
CCN1c2ncc(CCOc3ccc(C(=O)NCC4(C(=O)O)CCCC4)cc3C)cc2C(=O)N(C)c2cccnc21		RT-K103N Y181C	p24	0.01–0.05 µM
COc1cc([C@H]2OC[C@H]3[C@@H]2CO[C@H]3c2cc(OC)c(O)c(OC)c2)cc(OC)c1O	IIIB		MTT	>200 µg/mL
CCN1c2ncc(CCOc3ccc(NC(=O)CCC(=O)O)c4ccccc34)cc2C(=O)N(C)c2cccnc21		RT-K103N Y181C	p24	0.1–1 µM
CCOP(=O)(NCCCCC(=O)OC)OC[C@H]1O[C@@H](n2cc(C)c(=O)[nH]c2=O)C[C@@H]1N=[N+]=[N-]	RF		ELISA	100 µM
C/C(=N\NC(=O)c1ccccc1)c1cn(S(=O)(=O)c2ccc(Cl)cc2)c2cc(C)ccc12	IIIB		syncytia / visual reading	2.51 µg/mL
COc1cc(C[C@H]2CO[C@H](c3ccc(O[C@@H]4O[C@H](COC(C)=O)[C@@H](O)[C@H](O)[C@H]4O)c(OC)c3)[C@H]2CO)ccc1O	IIIB		MTT	>200 µg/mL
COC(=O)[C@H](C)NP(=O)(N[C@@H](C)C(=O)OC)OC[C@H]1O[C@@H](n2cc(C)c(=O)[nH]c2=O)C[C@@H]1N=[N+]=[N-]	RF		antigen	2 µM
CCN1c2ncc(CCOc3ccc(C(=O)O)c4c3CCN(C(C)=O)C4)cc2C(=O)N(C)c2cccnc21	WT		p24	0.1–1 µM
COC1=C(C)C(=O)C(C)(C)C(=O)C1(O)OC(=O)/C=C/c1ccccc1			MTT	25.91 µM
CCN1c2ncc(CCOc3ccc(/C=C(\C)C(=O)O)c4ccccc34)cc2C(=O)N(C)c2ccc(C)nc21	WT		p24	<0.1 µM
CC1=C(O)c2c(oc(-c3ccccc3)cc2=O)C(C)(C)C1=O			MTT	>200 µM
O=C(c1cc2c([nH]c3ccccc32)c(-c2cccs2)n1)N1CCC(Cc2ccccc2)CC1	IIIB		syncytia	12.5 µM
CCN1c2ncc(CCOc3cccc4c3CNC4=O)cc2C(=O)N(C)c2cccnc21		RT-K103N Y181C	p24	<0.01 µM
CCN1c2ncc(CCOc3ccc(-c4ccc(C(=O)O)cc4)cc3)cc2C(=O)N(C)c2ccc(Cl)nc21	IIIB		p24	<0.01 µM
CC(C)OC(=O)OCOP(=O)(CO[C@H](C)Cn1cnc2c(N)ncnc21)OCOC(=O)OC(C)C	A17		p24 / ELISA	0.01504 µM
COc1cc([C@H]2c3cc(O)c(OC)cc3C[C@H]3COC[C@@H]32)ccc1O	IIIB		MTT	82 µg/mL
CCOP(=O)(NCCCC(=O)OC)OC[C@H]1O[C@@H](n2cc(C)c(=O)[nH]c2=O)C[C@@H]1N=[N+]=[N-]	RF		ELISA	100 µM
CCCCCCOP(=O)([O-])OCC[NH2+]C			antigen	>100 µM
CCN1c2ncc(CCOc3ccc(C(=O)c4ccc(C(=O)O)cc4)cc3C)cc2C(=O)N(C)c2cccnc21		RT-K103N Y181C	p24	0.01–0.05 µM
O=C(N/N=C/c1cn(S(=O)(=O)c2ccc(Cl)cc2)c2ccccc12)c1ccccc1	IIIB		syncytia / visual reading	9.92 µg/mL
O=C(c1cc2c([nH]c3ccccc32)c(-c2cccs2)n1)N1CCC(c2cccc(Cl)c2)CC1	IIIB		syncytia	17.8 µM
CCN1c2ncc(CCOc3ccc(CC(=O)O)c4c3CCCC4)cc2C(=O)N(C)c2ccc(Cl)nc21		RT-K103N Y181C	p24	<0.1 µM
CC1=CC[C@@H]([C@@H](C)[C@H]2CC[C@@]3(C)[C@@H]4[C@@H](O)C[C@H]5C(C)(C)OC(=O)C=C[C@@]56C[C@@]46CC[C@]23C)OC1=O			cytopathic effect	8.79 µg/mL
Cc1cn([C@H]2C[C@H](N=[N+]=[N-])[C@@H](CO)O2)c(=O)[nH]c1=O	IIIB		MTT	0.00135 µg/mL
CN(Cc1nc2ccccc2[nH]1)Cc1ncccc1CCCN	IIIB		syncytia	10.4 µM
COc1cccc(C2CCN(C(=O)c3cc4c([nH]c5ccccc54)c(-c4cccs4)n3)CC2)c1	IIIB		syncytia	0.53 µM
COc1cc(C(=O)C(C)c2ccc(O)c(OC)c2)ccc1O	IIIB		MTT	87.1 µg/mL
CCCNP(=O)(NCCC)OC[C@H]1O[C@@H](n2cc(C)c(=O)[nH]c2=O)C[C@@H]1N=[N+]=[N-]	RF		antigen	10 µM
CC(=O)NCCCc1cccnc1CN(C)Cc1nc2ccccc2[nH]1	IIIB		syncytia	9.48 µM
Cc1ccc2c(c1)C1[C@H](C)CC[C@](C)(C(=O)O)[C@@H]1CC2			MTT	16.44 µM
CN(Cc1nc2ccccc2[nH]1)Cc1ncccc1CCCNS(C)(=O)=O	IIIB		syncytia	4.112 µM
CCN1c2ncc(CCOc3cccc4c3CNC(=O)N4)cc2C(=O)Nc2c(C)ccnc21	IIIB		p24	<0.01 µM
CN(Cc1ncc[nH]1)Cc1ncccc1CCC#N	IIIB		syncytia	15.8 µM
CCc1c(Cc2ccccc2)nc(SCC(=O)c2ccc(OC)cc2)[nH]c1=O				0.04828 µM
Cc1cn([C@H]2C[C@H](N=[N+]=[N-])[C@@H](CO)O2)c(=O)[nH]c1=O	IIIB		syncytia	0.017 µM
CCN1c2ncc(CCOc3cccc4c3CNC(=O)N4CC(=O)O)cc2C(=O)N(C)c2cccnc21		RT-K103N Y181C	p24	>0.05 µM
COc1ccc(C(=O)CSc2nc(CC3CCCCC3)c(C)c(=O)[nH]2)cc1				1.06 µM
COc1ccccc1C1CCN(C(=O)c2cc3c([nH]c4ccccc43)c(-c3cccs3)n2)CC1	IIIB		syncytia	3.8 µM
CN(Cc1nc2ccccc2[nH]1)Cc1ncccc1CCCNC(=O)Cc1ccc(F)cc1	IIIB		syncytia	4.433 µM
O=C(c1cc2c([nH]c3ccccc32)c(-c2cccs2)n1)N1CCC(c2ccc([N+](=O)[O-])cc2)CC1	IIIB		p24 / antigen	7.6 µM
CCc1c(Cc2cccc3ccccc23)nc(SCC(=O)c2ccc(OC)cc2)[nH]c1=O	IIIB		syncytia	0.427 µM
Cc1ccc(S(=O)(=O)n2cc(/C=N/NC(=O)c3ccccc3)c3cc(C#N)ccc32)cc1	IIIB		syncytia / visual reading	3.13 µg/mL
CC(C)c1c(Cc2ccccc2)nc(SCC(=O)c2ccccc2)[nH]c1=O				0.01401 µM
CCN1c2ncc(CCOc3ccc(/C=C/C(=O)O)c4ccccc34)cc2C(=O)Nc2c(C)ccnc21	WT		p24	<0.1 µM
CC(C)c1c(Cc2ccccc2)nc(SCC(=O)c2ccccc2)[nH]c1=O	IIIB		syncytia	0.014 µM
COc1ccc(C(=O)CSc2nc(Cc3ccccc3)c(C(C)C)c(=O)[nH]2)cc1				0.1441 µM
CCN1c2ncc(CCOc3ccc(C(C)C(=O)O)c4ccccc34)cc2C(=O)N(C)c2cccnc21		RT-K103N Y181C	p24	<0.1 µM
COC(=O)[C@H](Cc1ccccc1)NP(=O)(N[C@@H](Cc1ccccc1)C(=O)OC)OC[C@H]1O[C@@H](n2cc(C)c(=O)[nH]c2=O)C[C@@H]1N=[N+]=[N-]	RF		antigen	0.05 µM
CCN1c2ncc(CCOc3ccc(C(=O)N(C)c4ccc(C(=O)O)cc4)cc3C)cc2C(=O)N(C)c2cccnc21		RT-K103N Y181C	p24	0.01–0.05 µM
O=C(c1cc2c([nH]c3ccccc32)c(-c2cccs2)n1)N1CCC(c2ccccc2Cl)CC1	IIIB		syncytia	>200 µM

6 of the rows above, restated:

compound,strain,changes,method,value
CCN1c2ncc(CCOc3cccc4c3CNC4=O)cc2C(=O)N(C)c2cccnc21,,RT-K103N Y181C,p24,<0.01 µM
COc1cc([C@H]2c3cc(O)c(OC)cc3C[C@@H](COC(C)=O)[C@@H]2CO)ccc1O,IIIB,,MTT,100.7 µg/mL
CN(Cc1nc2ccccc2[nH]1)Cc1ncccc1CCCNS(C)(=O)=O,IIIB,,syncytia,4.112 µM
CCCCCCOP(=O)([O-])OCC[NH2+]C,,,antigen,>100 µM
O=C(c1cc2c([nH]c3ccccc32)c(-c2cccs2)n1)N1CCC(c2ccc(Cl)cc2)CC1,IIIB,,syncytia,>200 µM
CC(C)OC(=O)OCOP(=O)(CO[C@H](C)Cn1cnc2c(N)ncnc21)OCOC(=O)OC(C)C,A17,,p24 / ELISA,0.01504 µM